Literature values in patent US9340590B2 (priority 2011, dated 2016).

Chains of the proteins cited; added tags and fusions are not shown.
UniProt P04775, whole entry, looked up: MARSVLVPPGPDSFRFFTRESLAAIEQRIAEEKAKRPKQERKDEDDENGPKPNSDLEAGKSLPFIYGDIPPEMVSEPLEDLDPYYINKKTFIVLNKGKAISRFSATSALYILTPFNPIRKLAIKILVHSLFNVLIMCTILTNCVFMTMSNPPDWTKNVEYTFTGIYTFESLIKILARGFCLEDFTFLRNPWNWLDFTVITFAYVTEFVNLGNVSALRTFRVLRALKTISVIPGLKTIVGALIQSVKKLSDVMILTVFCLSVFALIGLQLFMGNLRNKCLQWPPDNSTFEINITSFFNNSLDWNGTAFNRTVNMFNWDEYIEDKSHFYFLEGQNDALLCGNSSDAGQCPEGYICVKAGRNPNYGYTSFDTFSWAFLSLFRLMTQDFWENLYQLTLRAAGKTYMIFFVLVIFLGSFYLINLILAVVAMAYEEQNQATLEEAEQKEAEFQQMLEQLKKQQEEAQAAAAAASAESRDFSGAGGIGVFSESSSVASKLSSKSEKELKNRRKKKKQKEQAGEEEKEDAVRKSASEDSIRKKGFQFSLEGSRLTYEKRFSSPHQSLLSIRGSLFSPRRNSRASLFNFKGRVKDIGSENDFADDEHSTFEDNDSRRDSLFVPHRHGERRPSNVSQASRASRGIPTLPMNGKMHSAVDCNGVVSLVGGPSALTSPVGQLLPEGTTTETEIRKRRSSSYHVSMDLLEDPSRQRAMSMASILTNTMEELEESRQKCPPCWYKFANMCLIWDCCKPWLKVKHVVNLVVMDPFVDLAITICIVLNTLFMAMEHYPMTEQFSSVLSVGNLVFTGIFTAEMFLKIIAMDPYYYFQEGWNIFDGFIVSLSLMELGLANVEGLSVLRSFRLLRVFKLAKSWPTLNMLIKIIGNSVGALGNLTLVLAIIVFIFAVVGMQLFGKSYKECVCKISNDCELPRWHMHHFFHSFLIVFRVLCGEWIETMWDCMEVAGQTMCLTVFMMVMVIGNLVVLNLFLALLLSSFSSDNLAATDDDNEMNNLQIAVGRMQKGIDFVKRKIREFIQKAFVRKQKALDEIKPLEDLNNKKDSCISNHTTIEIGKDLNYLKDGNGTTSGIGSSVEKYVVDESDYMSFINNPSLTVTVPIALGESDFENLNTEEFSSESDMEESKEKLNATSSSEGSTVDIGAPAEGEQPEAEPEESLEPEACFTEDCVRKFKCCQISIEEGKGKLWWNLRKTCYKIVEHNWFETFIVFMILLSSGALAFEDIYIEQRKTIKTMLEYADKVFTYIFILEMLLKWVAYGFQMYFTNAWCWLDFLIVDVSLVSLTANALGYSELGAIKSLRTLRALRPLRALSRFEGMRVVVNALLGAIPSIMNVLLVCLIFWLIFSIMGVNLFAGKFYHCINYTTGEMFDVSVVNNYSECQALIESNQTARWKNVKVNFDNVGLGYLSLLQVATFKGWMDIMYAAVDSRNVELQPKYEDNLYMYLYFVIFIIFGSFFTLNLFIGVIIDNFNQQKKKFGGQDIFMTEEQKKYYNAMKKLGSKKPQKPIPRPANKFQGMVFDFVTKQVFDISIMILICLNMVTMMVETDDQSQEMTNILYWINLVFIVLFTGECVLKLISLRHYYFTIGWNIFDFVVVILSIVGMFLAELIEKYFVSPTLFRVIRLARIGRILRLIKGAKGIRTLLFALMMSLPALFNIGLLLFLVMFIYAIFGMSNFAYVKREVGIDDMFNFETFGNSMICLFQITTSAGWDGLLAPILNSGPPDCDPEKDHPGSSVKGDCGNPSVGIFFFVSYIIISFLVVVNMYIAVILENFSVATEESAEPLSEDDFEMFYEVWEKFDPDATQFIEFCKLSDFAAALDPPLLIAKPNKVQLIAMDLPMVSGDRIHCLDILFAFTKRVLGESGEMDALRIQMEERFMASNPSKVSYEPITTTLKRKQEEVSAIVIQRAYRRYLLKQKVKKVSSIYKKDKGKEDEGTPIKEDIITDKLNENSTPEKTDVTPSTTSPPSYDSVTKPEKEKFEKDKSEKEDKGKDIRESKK

How the values were obtained:
Nav1.2 = Nav1.2 (Rattus norvegicus, UniProt P04775); conditions: read-out: TTX IC50; cited from earlier work
Nav1.1 = Nav1.1 (Rattus norvegicus, UniProt P04774); conditions: read-out: TTX IC50; cited from earlier work

SMILES: NC1=N[C@H](O)[C@H]2[C@H]3O[C@]4(O)O[C@@H]([C@@H](O)[C@@]2(N1)[C@@H]4O)[C@]3(O)CO [TTX, tetrodotoxin]
- IC50 (Nav1.2): 0.01 µM
- IC50 (Nav1.1): 0.01 µM
